Experimental data published in paper PMC8206564, “Discovery of New Potent anti-MERS CoV Fusion Inhibitors” (2021).

Test system: Vero cells
Test: Cytotoxicity assay, CCK-8
Conditions: at or below 10 µM, 3 days, concentrations up to 50 µM

SMILES | Cytotoxicity in Vero cells
CC[C@H](C)[C@H](NC(=O)[C@H](Cc1ccc(O)cc1)NC(=O)[C@H](Cc1ccc(O)cc1)NC(=O)[C@H](CCC(=O)O)NC(=O)[C@H](CC(N)=O)NC(=O)[C@H](CC(C)C)NC(=O)[C@H](C)NC(=O)[C@H](CCCCN)NC(=O)[C@@H](NC(=O)[C@@H](NC(=O)[C@H](CCC(N)=O)NC(=O)[C@H](CCC(N)=O)NC(=O)[C@H](CC(C)C)NC(=O)[C@H](CO)NC(=O)[C@H](CCC(=O)O)NC(=O)[C@H](CCSC)NC(=O)[C@H](CCC(=O)O)NC(=O)[C@H](Cc1ccc(O)cc1)NC(=O)[C@@H](NC(=O)[C@H](CC(C)C)NC(=O)[C@H](CC(=O)O)NC(=O)[C@H](CC(C)C)NC(=O)[C@H](CC(C)C)NC(=O)[C@@H](NC(=O)[C@H](Cc1c[nH]c2ccccc12)NC(=O)[C@H](CC(N)=O)NC(=O)[C@@H](NC(=O)[C@H](CCC(N)=O)NC(=O)[C@@H](NC(=O)[C@H](CC(C)C)NC(=O)[C@@H](N)CO)[C@@H](C)O)[C@@H](C)CC)[C@@H](C)O)[C@@H](C)O)C(C)C)C(C)C)C(=O)N[C@@H](CC(=O)O)C(=O)N[C@@H](CC(C)C)C(=O)N[C@@H](CCCCN)C(=O)N[C@@H](Cc1c[nH]cn1)C(=O)N[C@@H](CC(C)C)C(=O)O | No cytotoxicity
CC[C@H](C)[C@H](NC(=O)[C@H](Cc1ccc(O)cc1)NC(=O)[C@H](Cc1ccc(O)cc1)NC(=O)[C@H](CCC(=O)O)NC(=O)[C@H](CC(N)=O)NC(=O)[C@H](CC(C)C)NC(=O)[C@H](C)NC(=O)[C@H](CCCCN)NC(=O)[C@@H](NC(=O)[C@@H](NC(=O)[C@H](CCC(N)=O)NC(=O)[C@H](CCC(N)=O)NC(=O)[C@H](CC(C)C)NC(=O)[C@H](CO)NC(=O)[C@H](CCC(=O)O)NC(=O)[C@H](CCSC)NC(=O)[C@H](CCC(=O)O)NC(=O)[C@H](Cc1ccc(O)cc1)NC(=O)[C@@H](NC(=O)[C@H](CC(C)C)NC(=O)[C@H](CC(=O)O)NC(=O)[C@H](CC(C)C)NC(=O)[C@H](CC(C)C)NC(=O)[C@@H](NC(=O)[C@H](Cc1c[nH]c2ccccc12)NC(=O)[C@H](CC(N)=O)NC(=O)[C@@H](NC(=O)[C@H](CCC(N)=O)NC(=O)[C@@H](NC(=O)[C@H](CC(C)C)NC(=O)[C@@H](N)CO)[C@@H](C)O)[C@@H](C)CC)[C@@H](C)O)[C@@H](C)O)C(C)C)C(C)C)C(=O)N[C@@H](CC(=O)O)C(=O)N[C@@H](CC(C)C)C(=O)N[C@@H](CCCCN)C(=O)N[C@@H](CCC(=O)O)C(=O)N[C@@H](CC(C)C)C(=O)O | No cytotoxicity
